Measured values reported in patent US9492416B2, “Use of caftaric acid and lactic bacterium in food supplement for regulating skin pigmentation” (Nestec S.A., priority 2010, dated 2016).

System: chlorogenate esterase
Assay: Hydrolyzis of caftaric acid with chlorogenate esterase (HPLC)
Type: biochemical, Aspergillus japonicus
Conditions: 37° C.

Structure (SMILES) | Concentration in % relative to untreated reference at t = 0 (pH 7.0, time 0 min) | Concentration in % relative to untreated reference at t = 0 (pH 7.0, time 15 min) | Concentration in % relative to untreated reference at t = 0 (pH 7.0, time 30 min) | Concentration in % relative to untreated reference at t = 0 (pH 7.0, time 60 min) | Concentration in % relative to untreated reference at t = 0 (pH 7.0, time 120 min) | Concentration in % relative to untreated reference at t = 0 (pH 7.0, time 240 min)
O=C(O)/C=C/c1ccc(O)c(O)c1 [Caffeic Acid] | 0% | 18% | 36% | 57% | 81% | 98%
O=C(/C=C/c1ccc(O)c(O)c1)O[C@@H](C(=O)O)[C@@H](O)C(=O)O [Caftaric acid] | 99% | 82% | 64% | 43% | 19% | 2%
